The entries are a selection whose mix differs from that of the whole data set. Inconclusive results are not listed. Calls of active or inactive are those of the source. The call rests on the fitted dose curve; tested in A549 cells.
Potency means the concentration at half of the fitted maximal effect.

This assay can be described thus: qHTS for Stage-Specific Inhibitors of Vaccinia Orthopoxvirus: mCherry Reporter Primary qHTS. Further: nearly all actives have a fitted effect of over 35% in size. The settings on record: Vaccinia virus mCherry reporter infection, fluorescence. In general terms: Quantitative high-throughput screening tests each substance at several concentrations.
As for `CC(=O)OCC12CC(OC(=O)CC(C)C)C(C)=CC1OC1C(O)C(OC(C)=O)C2(C)C12CO2` (stereo unspecified), the Potency was active: 5.62 µM.
On to `CC1=CC2OC3CC4OC(=O)/C=C/C=CC(C(C)O)OCC(O)C(C)CC(=O)OCC2(CC1O)C4(C)C31CO1` (stereo unspecified), for which the Potency is active: 35.5 µM.
The value for `CC(O)C1C=CC=CC(=O)OC2CC3OC4C5OC5(C)C(O)CC4(COC(=O)C(O)C(C)CCO1)C2(C)C31CO1` (stereo unspecified) was active: 0.316 µM; that for `C[C@H]1[C@@H](OS(=O)(=O)O)C[C@@H]2C[C@H]([C@@H](O)c3cc(=O)[nH]c(=O)[nH]3)NC3=NC[C@H]1N32` was active: 1.58 µM.
For `CC1=CC2OC3CC4OC(=O)C=CC=CC(C(C)O)OCC(O)C5(C)OC5C(=O)OCC2(CC1O)C4(C)C31CO1` (stereo unspecified) the value was active: 4.47 µM; for `CC1=CC2OC3CC4OC(=O)C=CC=CC(=O)OCCC(C)C(O)C(=O)OCC2(CC1)C4(C)C31CO1` (stereo unspecified), active: 0.282 µM.

For the origin of these results see PubChem BioAssay AID720579 (National Center for Advancing Translational Sciences (NCATS), 2013).
